Compound potency records, mixed from different reports. Data source: NIAID ChemDB in PubChem.

All rows: enzyme or target tests; target: CCR5; measure: IC50

Neighbouring rows are from separate reports. An empty or dashed field is not shown. ICn: concentration for n% inhibition.

| smiles | mutations | method | result |
|---|---|---|---|
| Cc1cc(-c2ccccc2)nn1C1CCN(C[C@H]2CN([C@@H](C(=O)O)C3CCCCC3)C[C@@H]2c2ccccc2)CC1 | - | radiometric | <2 µM |
| Cc1cccc(C)c1C(=O)N1CCC(N2CCN([C@@H](C)c3ccc(Cc4ccc5c(c4)OCO5)cc3)[C@@H](C)C2)CC1 | - | binding / radiometric | 0.031 µM |
| CCN(C(=O)Cc1ccc(S(C)(=O)=O)cc1)C1CCN(CC[C@@H](c2ccc(OC)cc2)c2ccc(S(C)(=O)=O)cc2)CC1 | - | radiometric | 0.132 µM |
| CN(C[C@@H](CCN1CCC2(CC1)CC(=O)c1ccccc1O2)c1cccc(Cl)c1)S(=O)(=O)c1ccccc1 | - | radioligand binding / binding | >1 µM |
| O=C(c1ccccc1Cl)N1C[C@H](CN2CCC(O)(CCCc3ccc(-c4nn[nH]n4)cc3)CC2)[C@@H](c2ccccc2)C1 | CCR5-D276A | radiometric | 0.005 µM |
| C/C=C(\C)[C@@H]1C=C[C@@H]2C[C@H](C)C[C@H](C)[C@H]2[C@@H]1/C(O)=C1/C(=O)N[C@H](C[C@](C)(O)C(=O)O)C1=O | - | radiometric | 1.2 µM |
| CN(CC(c1ccccc1)C(C)(C)CN1CCC(c2ccccc2)CC1)S(=O)(=O)c1ccccc1 | - | radioligand binding / binding | >10 µM |
| CCN(C(=O)OCC(C)C)C1CCN(CCC(CN(C)S(=O)(=O)c2ccccc2)c2ccccc2)CC1 | - | radioligand binding / binding | 0.02 µM |
| CCN(C(=O)Cc1ccc(S(C)(=O)=O)cc1)C1CCN(CC[C@H](c2ccc(S(C)(=O)=O)cc2)c2cc(F)ccc2F)CC1 | - | radiometric | 0.32 µM |
| CN(C(=O)NCc1ccccc1)C1CCN(CCC(CN(C)S(=O)(=O)c2ccccc2)c2ccccc2)CC1 | - | radioligand binding / binding | 0.02 µM |
| CN(C[C@@H](CCN1CCC2(CC1)CSc1ccccc12)c1ccc2c(c1)OCO2)S(=O)(=O)c1ccccc1 | - | radioligand binding / binding | 0.7 µM |
| CCN(C(=O)OCc1ccccc1)C1CCN(CCC(COC(=O)c2ccccc2)(CN(C)S(=O)(=O)c2ccccc2)c2ccccc2)CC1 | - | radioligand binding / binding | >1 µM |
| CCCN(C(=O)CCc1ccccc1)C1CCN(CCC(CN(C)S(=O)(=O)c2ccccc2)c2ccccc2)CC1 | - | radioligand binding / binding | 0.022 µM |
| CCN(C(=O)Cc1ccc(S(C)(=O)=O)cc1)C1CCN(CC[C@H](c2ccc(S(C)(=O)=O)cc2)c2cccc(C(F)(F)F)c2)CC1 | - | radiometric | 0.02 µM |
| O=C(C1CCCCC1)N1C[C@H](CN2CCC(c3ccccc3)CC2)[C@@H](c2ccccc2)C1 | CCR5-Y251A | radiometric | 0.28 µM |
| CCOC(=O)c1cccc(C(CCN2CCC(c3ccccc3)CC2)CN(C)S(=O)(=O)c2ccccc2)c1 | - | radioligand binding / binding | <10 µM |
| CCN(C(=O)Cc1ccc(S(C)(=O)=O)cc1)C1CCN(CC[C@H](c2ccc(S(C)(=O)=O)cc2)c2cccc(OC)c2)CC1 | - | radiometric | 0.025 µM |
| CCc1cc(CCc2ccccc2)n(C2CCN(C[C@H]3CN([C@@H](C(=O)O)C4CCCCC4)C[C@@H]3c3ccccc3)CC2)n1 | - | radiometric | <2 µM |
| CN(C[C@@H](CCN1CCC2(CC1)CS(=O)(=O)c1ccccc12)c1cccc(Cl)c1)S(=O)(=O)c1ccccc1 | - | radioligand binding / binding | 0.014 µM |
| CN(CC(CCN1CCC2(CC1)CSc1ccccc12)c1cccs1)S(=O)(=O)c1ccccc1 | - | radioligand binding / binding | 1 µM |
| CN(CCCCc1ccccc1)CC[C@H](CN(C)S(=O)(=O)c1ccccc1)c1cccc(Cl)c1 | - | radioligand binding / binding | >10 µM |
| CCN(C(=O)Cc1ccc(S(C)(=O)=O)cc1)C1CCN(CCC(c2ccccc2)c2ccc(S(C)(=O)=O)cc2)CC1 | - | radiometric | 0.0017 µM |
| CN(C[C@@H](CCN1CCC2(CC1)CS(=O)(=O)c1ccccc12)c1ccc(F)cc1)S(=O)(=O)c1ccccc1 | - | radioligand binding / binding | 0.68 µM |
| CCN(C(=O)OCc1ccccc1)C1CCN(CCC(CN(C)S(=O)(=O)c2ccccc2)(c2ccccc2)C(F)(F)F)CC1 | - | radioligand binding / binding | >0.1 µM |
| CC(C)C(=O)N1C[C@H](CN2CCC(c3ccccc3)CC2)[C@@H](c2ccccc2)C1 | - | radiometric | 0.12 µM |
| CN(C[C@@H](CCN1CCCCC1)c1cccc(Cl)c1)S(=O)(=O)c1ccccc1 | - | radioligand binding / binding | >10 µM |
| CCN(C(=O)Cc1ccc(S(C)(=O)=O)cc1)C1CCN(CC[C@@H](c2ccccc2)c2ccc(S(C)(=O)=O)cc2)CC1 | - | radiometric | 0.00076 µM |
| Cc1cc(C)cc(C(CCN2CCC(c3ccccc3)CC2)CN(C)S(=O)(=O)c2ccccc2)c1 | - | radioligand binding / binding | 0.18 µM |

A second listing of 4 rows from above:

{"smiles": "CN(CC(CCN1CCC2(CC1)CSc1ccccc12)c1cccs1)S(=O)(=O)c1ccccc1", "method": "radioligand binding / binding", "result": "1 µM"}
{"smiles": "CC(C)C(=O)N1C[C@H](CN2CCC(c3ccccc3)CC2)[C@@H](c2ccccc2)C1", "method": "radiometric", "result": "0.12 µM"}
{"smiles": "CCN(C(=O)OCc1ccccc1)C1CCN(CCC(CN(C)S(=O)(=O)c2ccccc2)(c2ccccc2)C(F)(F)F)CC1", "method": "radioligand binding / binding", "result": ">0.1 µM"}
{"smiles": "CN(C(=O)NCc1ccccc1)C1CCN(CCC(CN(C)S(=O)(=O)c2ccccc2)c2ccccc2)CC1", "method": "radioligand binding / binding", "result": "0.02 µM"}